Pooled drug test results. Numbers come from NIAID ChemDB, via PubChem.

All rows: tests in culture; agent: HIV-1

An empty or dashed field is not shown.

Cc1ccccc1CNC(=O)[C@H]1N(C(=O)[C@@H](OC(=O)CCCC(=O)NCCC(=O)OC[C@H]2O[C@@H](n3cc(C)c(=O)[nH]c3=O)C[C@@H]2N=[N+]=[N-])[C@H](Cc2ccccc2)NC(=O)COc2c(C)cccc2C)CSC1(C)C ; strain or isolate: LAI ; method: cytopathic effect ; read-out: EC50 ; cell line: MOLT-4 ; value: 0.03 µM
CCN(CC)CCN1C(=O)c2cc(OC)c(OC)c3c2c1cc1cc(OC)c(OC)cc13 ; strain or isolate: NL4-3 ; method: luciferase ; read-out: EC50 ; cell line: TZM-bl ; value: 3.73 µM
CCCCCCCC/C=C\CCCCCCCC(=O)Nc1nc(N)nc2c1ncn2[C@H]1CO[C@@H](COP(=O)(N[C@@H](C)C(=O)OCC)Oc2ccccc2)O1 ; strain or isolate: LAV-1 ; method: RT activity ; read-out: EC90 ; cell line: PBMC ; value: 2.1 µM
CC(C)C1=C2[C@H]3CC[C@@H]4[C@@]5(C)CC[C@H](OC(=O)[C@H]6C[C@@H](C(=O)O)C6(C)C)C(C)(C)[C@@H]5CC[C@@]4(C)[C@]3(C)CC[C@@]2([C@@H](O)CNCC(C)(C)NC(=O)c2nc3ccccc3[nH]2)CC1=O ; strain or isolate: 92HT599 ; method: p24 / ELISA ; read-out: EC50 ; cell line: MT-2 ; value: <1 µM
Cc1ccc(Cn2cc(Cc3ccccc3F)cc(/C(O)=C/C(=O)C(=O)O)c2=O)cc1 ; read-out: EC50 ; cell line: MAGI ; value: 0.7 µM
Nc1nccc2nn([C@@H]3O[C@H](CO)[C@@H](O)[C@H]3O)nc12 ; method: cytopathic effect ; read-out: EC50 ; cell line: MT-4 ; value: >358 µM
CC(C)C(NC[C@H](O)[C@H](Cc1ccccc1)NC(=O)[C@@H](NC(=O)[C@H](Cc1cccc2ccccc12)CS(=O)(=O)C(C)(C)C)C(C)C)C(F)(F)F ; read-out: EC50 ; cell line: PBL ; value: 17.36 µM
CCOc1nc(N)nc2c1ncn2[C@H]1C=C[C@@H](CO)C1 ; strain or isolate: IIIB ; method: cytopathic effect / XTT ; read-out: EC50 ; cell line: MT-2 ; value: 5.78 µM
O=C(O)C(=O)/C=C(\O)c1cc(Cc2ccccc2)cn(Cc2ccc(F)cc2F)c1=O ; read-out: EC50 ; cell line: MAGI ; value: 0.6 µM
CCC(O)c1cnc(Nc2ccc(C#N)cc2)nc1Nc1c(C)cc(/C=C/C#N)cc1C ; strain or isolate: PSI (IIIB) ; read-out: EC50 ; cell line: MT-4 ; value: 1070 µM
Cc1cn([C@H]2C[C@H](O)[C@@H](COC(=O)CCCCCCCCCCCN=[N+]=[N-])O2)c(=O)[nH]c1=O ; method: cytopathic effect / XTT ; read-out: EC50 ; cell line: CEM ; value: 4.6 µM
CC(C)C1=C2[C@H]3CC[C@@H]4[C@@]5(C)CC[C@H](OC(=O)[C@H]6C[C@@H](C(=O)O)C6(C)C)C(C)(C)[C@@H]5CC[C@@]4(C)[C@]3(C)CC[C@@]2([C@@H](O)CNCc2ccc(O[C@H]3CCOC3)cc2)CC1=O ; strain or isolate: 92HT599 ; method: p24 / ELISA ; read-out: EC50 ; cell line: MT-2 ; value: <1 µM
CC1(C)[C@@H](CCO)C[C@H]1n1cnc2c(=O)[nH]cnc21 ; method: cytopathic effect ; read-out: EC50 ; cell line: CEM ; value: >100 µg/mL
CC(C)[C@H](NC(=O)[C@H](Cc1cccc2ccccc12)CS(=O)(=O)C(C)(C)C)C(=O)N[C@@H](Cc1ccccc1)[C@@H](O)CN1CCCC[C@H]1C(F)(F)F ; read-out: EC50 ; cell line: PBL ; value: >1 µM
Cc1cnc(Nc2ccc(C#N)cc2)nc1C(C)(O)c1ccc(C(C)(C)C)cc1 ; strain or isolate: IRLL98 ; method: MTT ; read-out: EC50 ; cell line: MT-4 ; value: 1.246 µM
CC(C)[C@H](NC(=O)[C@H](Cc1cccc2ccccc12)CS(=O)(=O)C(C)(C)C)C(=O)N[C@@H](Cc1ccccc1)[C@@H](O)C(O)CN1CCC[C@H]1C(F)(F)F ; read-out: EC50 ; cell line: PBL ; value: 17 µM
CC(C)C1=C2[C@H]3CC[C@@H]4[C@@]5(C)CC[C@H](OC(=O)[C@H]6C[C@@H](C(=O)O)C6(C)C)C(C)(C)[C@@H]5CC[C@@]4(C)[C@]3(C)CC[C@@]2(CC(=O)NCc2ccc(F)cc2)CC1=O ; strain or isolate: 92HT599 ; method: p24 / ELISA ; read-out: EC50 ; cell line: MT-2 ; value: <1 µM
Cc1ccc(Sc2c([N+](=O)[O-])ncn2CC2=CC(=O)C(=O)CN2C)cc1 ; strain or isolate: IIIB ; method: MTT ; read-out: EC50 ; cell line: MT-4 ; value: >29.8 µM
CC1(C)[C@@H](CCO)C[C@H]1n1cnc2c(N)ncnc21 ; method: cytopathic effect ; read-out: EC50 ; cell line: CEM ; value: >20 µg/mL
Cc1cnc(Nc2ccc(C#N)cc2)nc1C(C)(O)c1ccc(F)cc1 ; strain or isolate: IRLL98 ; method: MTT ; read-out: EC50 ; cell line: MT-4 ; value: 3.549 µM
O=C(O)C(=O)/C=C(\O)c1cc(Cc2ccccc2F)cn(Cc2cccc(F)c2)c1=O ; read-out: EC50 ; cell line: MAGI ; value: 1.9 µM
OC[C@H]1O[C@@H](n2nnc3ccnc(Cl)c32)C[C@@H]1O ; method: cytopathic effect ; read-out: EC50 ; cell line: MT-4 ; value: >368 µM
CCCCCCCCCC(=O)Nc1nc(N)nc2c1ncn2[C@H]1CO[C@@H](COP(=O)(N[C@@H](C)C(=O)OCC)Oc2ccccc2)O1 ; strain or isolate: LAV-1 ; method: RT activity ; read-out: EC50 ; cell line: PBMC ; value: 1.5 µM
CNC(O)c1cnc(Nc2ccc(C#N)cc2)nc1Nc1c(C)cc(/C=C/C#N)cc1C ; strain or isolate: Y181C ; read-out: EC50 ; cell line: MT-4 ; value: 0.01995 µM
CN(C)c1nc(N)nc2c1ncn2[C@H]1C=C[C@@H](CO)C1 ; strain or isolate: IIIB ; method: cytopathic effect / XTT ; read-out: EC50 ; cell line: MT-2 ; value: 10.6 µM
CC1(C)[C@@H](CCO)C[C@H]1n1nnc2c(Cl)nc(N)nc21 ; method: cytopathic effect ; read-out: EC50 ; cell line: CEM ; value: >4 µg/mL
Cc1ccccc1CNC(=O)[C@H]1N(C(=O)[C@@H](OC(=O)CCC(=O)NCC(=O)OC[C@H]2O[C@@H](n3cc(C)c(=O)[nH]c3=O)C[C@@H]2N=[N+]=[N-])[C@H](Cc2ccccc2)NC(=O)COc2c(C)cccc2C)CSC1(C)C ; strain or isolate: LAI ; method: cytopathic effect ; read-out: EC50 ; cell line: MOLT-4 ; value: 0.0114 µM
CC(C)C1=C2[C@H]3CC[C@@H]4[C@@]5(C)CC[C@H](OC(=O)[C@H]6C[C@@H](C(=O)O)C6(C)C)C(C)(C)[C@@H]5CC[C@@]4(C)[C@]3(C)CC[C@@]2([C@@H](O)CNCc2cccnc2)CC1=O ; strain or isolate: 92HT599 ; method: p24 / ELISA ; read-out: EC50 ; cell line: MT-2 ; value: <1 µM
CCOC(=O)[C@H](C)NP(=O)(OC[C@@H]1OC[C@H](n2cnc3c(N)nc(N)nc32)O1)Oc1ccccc1 ; strain or isolate: LAV-1 ; method: RT activity ; read-out: EC90 ; cell line: PBMC ; value: 1.5 µM
CNc1nc(N)nc2c1ncn2[C@H]1C=C[C@@H](CO)C1 ; strain or isolate: IIIB ; method: cytopathic effect / XTT ; read-out: EC50 ; cell line: MT-2 ; value: >20 µM
COC(O)c1cnc(Nc2ccc(C#N)cc2)nc1Nc1c(C)cc(/C=C/C#N)cc1C ; strain or isolate: L100I + K103N ; read-out: EC50 ; cell line: MT-4 ; value: 0.00389 µM
Nc1nccc2c1ncn2[C@H]1C[C@H](O)[C@@H](CO)O1 ; method: cytopathic effect ; read-out: EC50 ; cell line: MT-4 ; value: >145 µM
CCCCCCCCCCCCCC(=O)Nc1nc(N)nc2c1ncn2[C@H]1CO[C@@H](COP(=O)(N[C@@H](C)C(=O)OCC)Oc2ccccc2)O1 ; strain or isolate: LAV-1 ; method: RT activity ; read-out: EC90 ; cell line: PBMC ; value: 0.89 µM
CC(=O)N(O)CCCCCNC(=O)CCC(=O)N(O)CCCCCNC(=O)CCC(=O)N(O)CCCCCN ; strain or isolate: IIIB ; method: p24 ; read-out: EC50 ; cell line: H9 ; value: <30 µM
Cc1ccccc1NC(=O)[C@H]1N(C(=O)[C@@H](O)[C@H](Cc2ccccc2)NC(=O)COc2c(C)cccc2C)CSC1(C)C ; strain or isolate: LAI ; method: cytopathic effect ; read-out: EC50 ; cell line: MOLT-4 ; value: 0.1689 µM
Cc1cc(/C=C/C#N)cc(C)c1Nc1nc(Nc2ccc(C#N)cc2)ncc1C(O)c1ccccn1 ; strain or isolate: PSI (IIIB) ; read-out: EC50 ; cell line: MT-4 ; value: 234 µM
CN1CC(=O)C(=O)C=C1Cn1cnc([N+](=O)[O-])c1Nc1cc(Cl)cc(Cl)c1 ; strain or isolate: IIIB ; method: MTT ; read-out: EC50 ; value: 1.3 µM
Nc1nccc2nn([C@H]3C[C@H](O)[C@@H](CO)O3)nc12 ; method: cytopathic effect ; read-out: EC50 ; cell line: MT-4 ; value: >396 µM
Cc1cccc(Cn2cc(Cc3ccc(F)cc3F)cc(/C(O)=C/C(=O)C(=O)O)c2=O)c1 ; read-out: EC50 ; cell line: MAGI ; value: 0.7 µM
Cc1cc(/C=C/C#N)cc(C)c1Nc1nc(Nc2ccc(C#N)cc2)ncc1C(O)OCc1cccnc1 ; strain or isolate: K103N + Y181C ; read-out: EC50 ; cell line: MT-4 ; value: 0.257 µM
CN1CC(=O)C(=O)C=C1Cn1cnc([N+](=O)[O-])c1Nc1cccc(Cl)c1 ; strain or isolate: IIIB ; method: MTT ; read-out: EC50 ; cell line: MT-4 ; value: >5.5 µM
CC(C)C1=C2[C@H]3CC[C@@H]4[C@@]5(C)CC[C@H](OC(=O)[C@H]6C[C@@H](C(=O)O)C6(C)C)C(C)(C)[C@@H]5CC[C@@]4(C)[C@]3(C)CC[C@@]2([C@@H](O)CNC(=O)C(C)(C)NC(=O)c2ccc(O[C@H]3CCOC3)cc2)CC1=O ; strain or isolate: 92HT599 ; method: p24 / ELISA ; read-out: EC50 ; cell line: MT-2 ; value: <1 µM
CCCCCC(=O)Nc1nc(N)nc2c1ncn2[C@H]1CO[C@@H](COP(=O)(N[C@@H](C)C(=O)OCC)Oc2ccccc2)O1 ; strain or isolate: LAV-1 ; method: RT activity ; read-out: EC50 ; cell line: PBMC ; value: 2.2 µM
NC(=O)C[C@H](NC(=O)c1ccc2ccccc2n1)C(=O)N[C@@H](Cc1ccccc1)[C@H](O)C(O)CN1CCC[C@H]1C(F)(F)F ; read-out: EC50 ; cell line: PBL ; value: 17 µM
Cc1cc(/C=C/C#N)cc(C)c1Nc1nc(Nc2ccc(C#N)cc2)ncc1C(O)OCCO ; strain or isolate: L100I + K103N ; read-out: EC50 ; cell line: MT-4 ; value: 0.00912 µM
Nc1nc(N)c2ncn([C@H]3C=C[C@@H](CO)C3)c2n1 ; strain or isolate: IIIB ; method: cytopathic effect / XTT ; read-out: EC50 ; cell line: MT-2 ; value: 12.6 µM
C[C@H]1CC[C@H](C(F)(F)F)N1C[C@@H](O)[C@H](Cc1ccccc1)NC(=O)[C@H](CC(N)=O)NC(=O)c1ccc2ccccc2n1 ; read-out: EC50 ; cell line: PBL ; value: 0.68 µM
Cc1cc(/C=C/C#N)cc(C)c1Nc1nc(Nc2ccc(C#N)cc2)ncc1C(O)c1csc2nc(Cl)cn12 ; strain or isolate: PSI (IIIB) ; read-out: EC50 ; cell line: MT-4 ; value: 724 µM
Cc1nc(C)c(C(=O)NCC[C@@]23CC[C@]4(C)[C@H](CC[C@@H]5[C@@]6(C)CC[C@H](OC(=O)[C@H]7C[C@@H](C(=O)O)C7(C)C)C(C)(C)[C@@H]6CC[C@]54C)C2=C(C(C)C)C(=O)C3)s1 ; strain or isolate: 92HT599 ; method: p24 / ELISA ; read-out: EC50 ; cell line: MT-2 ; value: <1 µM
Cc1ccccc1CNC(=O)[C@H]1N(C(=O)[C@@H](OC(=O)CCC(=O)NCCC(=O)OC[C@@H]2O[C@H](n3cc(C)c(=O)[nH]c3=O)C[C@H]2N=[N+]=[N-])[C@H](Cc2ccccc2)NC(=O)COc2c(C)cccc2C)CSC1(C)C ; strain or isolate: LAI ; method: cytopathic effect ; read-out: EC50 ; cell line: MOLT-4 ; value: 0.0231 µM

6 of the rows above, restated:

compound,strain or isolate,method,read-out,cell line,value
CC(C)[C@H](NC(=O)[C@H](Cc1cccc2ccccc12)CS(=O)(=O)C(C)(C)C)C(=O)N[C@@H](Cc1ccccc1)[C@@H](O)CN1CCCC[C@H]1C(F)(F)F,,,EC50,PBL,>1 µM
Cc1ccccc1NC(=O)[C@H]1N(C(=O)[C@@H](O)[C@H](Cc2ccccc2)NC(=O)COc2c(C)cccc2C)CSC1(C)C,LAI,cytopathic effect,EC50,MOLT-4,0.1689 µM
CC1(C)[C@@H](CCO)C[C@H]1n1cnc2c(=O)[nH]cnc21,,cytopathic effect,EC50,CEM,>100 µg/mL
CC(C)C(NC[C@H](O)[C@H](Cc1ccccc1)NC(=O)[C@@H](NC(=O)[C@H](Cc1cccc2ccccc12)CS(=O)(=O)C(C)(C)C)C(C)C)C(F)(F)F,,,EC50,PBL,17.36 µM
Cc1ccccc1CNC(=O)[C@H]1N(C(=O)[C@@H](OC(=O)CCC(=O)NCC(=O)OC[C@H]2O[C@@H](n3cc(C)c(=O)[nH]c3=O)C[C@@H]2N=[N+]=[N-])[C@H](Cc2ccccc2)NC(=O)COc2c(C)cccc2C)CSC1(C)C,LAI,cytopathic effect,EC50,MOLT-4,0.0114 µM
CC(C)C1=C2[C@H]3CC[C@@H]4[C@@]5(C)CC[C@H](OC(=O)[C@H]6C[C@@H](C(=O)O)C6(C)C)C(C)(C)[C@@H]5CC[C@@]4(C)[C@]3(C)CC[C@@]2(CC(=O)NCc2ccc(F)cc2)CC1=O,92HT599,p24 / ELISA,EC50,MT-2,<1 µM

ECn: concentration that inhibits the pathogen or its effect by n%. Neighbouring rows are from separate reports.